Measured values taken from article PMC10525135 (Antibiotics, 2023).

Test: peptide made by a vendor (Fmoc solid-phase peptide synthesis)
Settings: whole synthesis, reverse-phase high-performance liquid chromatography and mass spectrometry

## LLGDFFRKSKEKIGKEFKRIVQRIKDFLRNLVPRTES
  final HPLC purity: 99%

End groups of sequences in plain letters are not given here.
